## Potato spindle tuber viroid, stem 15: variant abundance in plants

Source: Wu et al. 2024 (doi:10.1371/journal.ppat.1012142), supplementary data.

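Three N. benthamiana plants were inoculated with the whole mutant pool. Samples came from the inoculated region at 5 days, the leaf margin at 10 and upper systemic leaves at 12.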

The pool varies stem 15 of the PSTVd intermediate strain in the pattern CUGGAGCGAUNGNNUNNG; wild type is CUGGAGCGAUCGCUUCGG (upper and lower strand joined, each 5' to 3', the first 9 letters being the upper strand).

Values are reads per thousand in the sample; higher means more abundant, 0 means not found. Each value is the mean of three plants. "Pool" is the share in the plasmid pool used as inoculum, on the same scale. The inoculated region was read from the minus strand, the other sites from the plus strand.

- CUGGAGAGAUUGACUUAG (pool 0.0162) -> inoculated region 0; leaf margin 0; systemic leaves 0
- CUGGAGCGAUCGAGUUCG (pool 0.857) -> inoculated region 0.291; leaf margin 0.0450; systemic leaves 0
- CUGGAGCGAUAGGCUUAG (pool 0.743) -> inoculated region 1.44; leaf margin 0.0106; systemic leaves 0
- CUGGAGCGAUAGAUUAGG (pool 0.840) -> inoculated region 0.296; leaf margin 0.0397; systemic leaves 0
- CCGGAGCGAUCGCCUCAG (pool 0.0162) -> inoculated region 0; leaf margin 0; systemic leaves 0
- CUGGAGCGAUGGUCUCUG (pool 0.937) -> inoculated region 0.299; leaf margin 0.0325; systemic leaves 0
- CUGGAGCGAUCGUGUACG (pool 0.792) -> inoculated region 0.324; leaf margin 0.0260; systemic leaves 0
- CUGGAGCGAUUGUAUAGG (pool 0.954) -> inoculated region 1.18; leaf margin 0.0244; systemic leaves 0
- CUGGAGCGAUAGGGUCCG (pool 0.873) -> inoculated region 0.309; leaf margin 0.0510; systemic leaves 0
- CUGGAGCGAUUGCCUAAG (pool 0.905) -> inoculated region 1.60; leaf margin 0.490; systemic leaves 0
- CUGGAGCGAUUGUAUGAG (pool 0.986) -> inoculated region 1.67; leaf margin 0.674; systemic leaves 0.551
- CUGGAGCGAUAGGUUCAG (pool 1.45) -> inoculated region 0.802; leaf margin 0.0397; systemic leaves 0.0133
- CUGGAGCGAUCGCUUCGC (pool 0.0323) -> inoculated region 0.0645; leaf margin 0; systemic leaves 0.0132
- CUGGAGCGAUGGCCUUCG (pool 0.840) -> inoculated region 0.309; leaf margin 0.00528; systemic leaves 0
- CUGGAGCGAUAGUCUAUG (pool 1.00) -> inoculated region 0.448; leaf margin 0.0402; systemic leaves 0
- CUGGAGCGAUGGUAUCUG (pool 0.873) -> inoculated region 0.305; leaf margin 0.0866; systemic leaves 0
- AUGGAGCGAUCGACUCCG (pool 0.0162) -> inoculated region 0; leaf margin 0; systemic leaves 0
- CUGGAGCGAUGGUCUACG (pool 0.824) -> inoculated region 0.334; leaf margin 0.0563; systemic leaves 0
- CUGGAGCGAUCGCAUGGG (pool 0.954) -> inoculated region 0.385; leaf margin 0.0260; systemic leaves 0
- CUUGAGCGAUCUCUUCGG (pool 0.0162) -> inoculated region 0; leaf margin 0; systemic leaves 0
- CUGGAGCGAUUGUUUAUG (pool 0.954) -> inoculated region 1.09; leaf margin 0.0282; systemic leaves 0
- CUGGAGCGAUUGAUUGCG (pool 0.873) -> inoculated region 0.267; leaf margin 0.0419; systemic leaves 0
- CUGGAGCGAUGGGGUCUG (pool 0.937) -> inoculated region 0.236; leaf margin 0.0160; systemic leaves 0
- CUGGAGCGAUGGGCUGUG (pool 0.598) -> inoculated region 0.314; leaf margin 0.0249; systemic leaves 0
- AUGGAGCGAUGGCCUUAG (pool 0.0162) -> inoculated region 0; leaf margin 0; systemic leaves 0
- CUGGAGCGAUCGCGUGAG (pool 1.18) -> inoculated region 0.376; leaf margin 0.00908; systemic leaves 0
- CUGGAGCGAUAGGUUCCG (pool 0.792) -> inoculated region 0.260; leaf margin 0.0320; systemic leaves 0
- CUGGAGCGAUCGCAUGCG (pool 0.533) -> inoculated region 0.303; leaf margin 0.0494; systemic leaves 0
- CUGGAGCGAUUGCUUAGG (pool 2.15) -> inoculated region 1.23; leaf margin 0.0418; systemic leaves 0
- CUGGAGCGAUUGCCUUGG (pool 1.13) -> inoculated region 1.78; leaf margin 0.795; systemic leaves 0.547
- CUGGAGCGAUCGCGUAUG (pool 1.10) -> inoculated region 0.749; leaf margin 0.0207; systemic leaves 0
- CUGGAGCGAUGGUGUACG (pool 0.776) -> inoculated region 0.292; leaf margin 0.0350; systemic leaves 0
- CUGGAGCGAUAGCAUCGG (pool 0.679) -> inoculated region 0.299; leaf margin 0.0388; systemic leaves 0
- CUGGAGCGAUUGUCUCGG (pool 0.873) -> inoculated region 1.57; leaf margin 0.522; systemic leaves 0
- CUGGAGCGAUAGUGUGCG (pool 2.08) -> inoculated region 1.05; leaf margin 0.0350; systemic leaves 0.0132
- CUGGAGCGAUUGAAUUCU (pool 0.857) -> inoculated region 0.719; leaf margin 0; systemic leaves 0.00664
- CUGGGGCGAUCGCUUCGG (pool 0.0162) -> inoculated region 0.146; leaf margin 0.411; systemic leaves 0.456
- CUGGAGAGAUAGCUUUGG (pool 0.0162) -> inoculated region 0; leaf margin 0; systemic leaves 0

3 of these entries, quoted again:

* AUGGAGCGAUCGACUCCG (pool 0.0162): inoculated region 0; leaf margin 0; systemic leaves 0
* CUGGGGCGAUCGCUUCGG (pool 0.0162): inoculated region 0.146; leaf margin 0.411; systemic leaves 0.456
* CUGGAGCGAUGGUGUACG (pool 0.776): inoculated region 0.292; leaf margin 0.0350; systemic leaves 0

Samples held 36,693 to 63,082 reads, so the smallest values rest on one or two reads. Sequences that differ at fixed positions probably stem from PCR or sequencing errors, and defective variants can be carried along by functional ones. For reference, wild type rose from 10.2 per thousand in the pool to 285, 367, 312 (inoculated region), 785, 865, 782 (leaf margin) and 854, 898, 915 (systemic leaves).